Tests used:
[1] = system: CN(C)c1ccc(N=Nc2ccc(S(=O)(=O)N[C@@H](CC[S@+](C)[O-])C(=O)O)cc2)cc1; test: purified protein; details: 20 mM DTT, 50 mM sodium phosphate pH 7.5, 50 mM NaCl, 37 °C
[2] = system: CN(C)c1ccc(N=Nc2ccc(S(=O)(=O)N[C@@H](CC[S@@+](C)[O-])C(=O)O)cc2)cc1; test: purified protein; details: 20 mM DTT, 50 mM sodium phosphate pH 7.5, 50 mM NaCl, 37 °C

| Substance | Km [1] | kcat [1] | kcat/Km [1] | Km [2] | kcat [2] | kcat/Km [2] |
| --- | --- | --- | --- | --- | --- | --- |
| HpMsrAB (WT) (Helicobacter pylori 26695; D197A) | 0.15 ± 0.04 mM | 0.102 s⁻¹ | 683 M⁻¹ s⁻¹ | 0.06 ± 0.02 mM | 0.0733 s⁻¹ | 1220 M⁻¹ s⁻¹ |
| HpMsrAB (WT) (Helicobacter pylori 26695; D197A/E193A) | 0.12 ± 0.05 mM | 0.095 s⁻¹ | 783 M⁻¹ s⁻¹ | 0.05 ± 0.02 mM | 0.05 s⁻¹ | 1000 M⁻¹ s⁻¹ |
| HpMsrAB (WT) (Helicobacter pylori 26695; E193A) | 0.14 ± 0.06 mM | 0.108 s⁻¹ | 767 M⁻¹ s⁻¹ | 0.06 ± 0.02 mM | 0.0783 s⁻¹ | 1300 M⁻¹ s⁻¹ |
| HpMsrAB (WT) (Helicobacter pylori 26695; E339A) | 0.04 ± 0.01 mM | 0.0583 s⁻¹ | 1470 M⁻¹ s⁻¹ | 0.02 ± 0.01 mM | 0.045 s⁻¹ | 2250 M⁻¹ s⁻¹ |
| HpMsrAB (WT) (Helicobacter pylori 26695; Y343F) | 0.12 ± 0.02 mM | 0.0967 s⁻¹ | 800 M⁻¹ s⁻¹ | 0.03 ± 0.02 mM | 0.0867 s⁻¹ | 2880 M⁻¹ s⁻¹ |
